Results of unrelated studies side by side (data: NIAID ChemDB).

Common to all: growth or infection tests; organism: HIV-2; cell line: MT-4; measure: EC50

Conditions beyond the fields shown may differ between rows.

{"structure": "O=[N+]([O-])c1ccc(-c2csc(N/N=C/c3ccccn3)n2)cc1", "strain or isolate": "ROD", "read by": "MTT", "value": ">17.3 µM"}
{"structure": "C=C1O[C@@H](n2cc(C)c(=O)n(C)c2=O)[C@H](O[Si](C)(C)C(C)(C)C)[C@]12OS(=O)(=O)C=C2N", "value": ">50 µM"}
{"structure": "Cc1cnc(Nc2ccc(C#N)cc2)nc1C(C)(O)c1ccc(F)cc1", "strain or isolate": "ROD", "read by": "MTT", "value": ">38.2 µM"}
{"structure": "Cc1cn([C@@H]2O[C@H](COC(=O)c3ccccc3)C3(OS(=O)(=O)C=C3N)[C@H]2O[Si](C)(C)C(C)(C)C)c(=O)n(C)c1=O", "value": ">15 µM"}
{"structure": "C/C(=N\\Nc1nc(-c2ccc(C#N)cc2)cs1)c1ccc(Cl)c(Cl)c1", "strain or isolate": "ROD", "read by": "MTT", "value": ">17.1 µM"}
{"structure": "COc1cc2c(cc1OC)C1=NOC(c3ccccc3Cl)C1C2", "strain or isolate": "ROD", "read by": "MTT", "value": ">11.54 µM"}
{"structure": "CCO[C@]12CS(=O)(=O)O[C@@]13C(CN2)O[C@@H](n1cc(C)c(=O)[nH]c1=O)[C@@H]3O[Si](C)(C)C(C)(C)C", "strain or isolate": "ROD", "value": ">10 µM"}
{"structure": "C(=N\\Nc1nc(-c2ccccc2)cs1)/c1ccccn1", "strain or isolate": "ROD", "read by": "MTT", "value": ">2.97 µM"}
{"structure": "COc1cc2c(cc1OC)C1=NOC(c3ccco3)C1C2", "strain or isolate": "ROD", "read by": "MTT", "value": ">10.97 µM"}
{"structure": "N#Cc1ccc(Nc2nc(Oc3ccc(-c4ccc(C#N)cc4)c(C(F)(F)F)c3)c3sccc3n2)cc1", "strain or isolate": "ROD", "read by": "MTT", "value": ">13.6 µM"}
{"structure": "O=[N+]([O-])c1ccc(-c2csc(N/N=C/c3ccncc3)n2)cc1", "strain or isolate": "ROD", "read by": "MTT", "value": ">75.6 µM"}
{"structure": "CCS[C@]12CS(=O)(=O)O[C@@]13[C@@H](CN2)O[C@@H](n1cc(C)c(=O)[nH]c1=O)[C@@H]3O", "strain or isolate": "ROD", "value": ">250 µM"}
{"structure": "COc1ccc(C2ON=C3c4cc(OC)c(OC)cc4CC32)cc1OC", "strain or isolate": "ROD", "read by": "MTT", "value": ">11.81 µM"}
{"structure": "O=[N+]([O-])c1ccc(-c2csc(N/N=C/c3ccccc3O)n2)cc1", "strain or isolate": "ROD", "read by": "MTT", "value": ">125 µM"}
{"structure": "COc1cc2c(cc1OC)C1=NOC(c3cccs3)C1C2", "strain or isolate": "ROD", "read by": "MTT", "value": ">31.02 µM"}
{"structure": "Cc1cn([C@@H]2O[C@H](COC(=S)N(C)C)C3(OS(=O)(=O)C=C3N)[C@H]2O[Si](C)(C)C(C)(C)C)c(=O)n(C)c1=O", "value": ">10 µM"}
{"structure": "O=C1c2ccccc2N(Cc2ccccc2)S(=O)(=O)N1COCc1ccccc1", "strain or isolate": "ROD", "read by": "cytopathic effect", "value": ">10 µM"}
{"structure": "Cc1cn([C@@H]2O[C@H](COC(=O)C(C)C)C3(OS(=O)(=O)C=C3N)[C@H]2O[Si](C)(C)C(C)(C)C)c(=O)n(C)c1=O", "value": ">50 µM"}
{"structure": "CCN[C@H]1[C@@H](OC)O[C@H](COP(=O)(O)OC[C@@H]2Oc3ccc([C@H]4Oc5cc(O)cc(O)c5C(=O)[C@@H]4O)cc3O[C@H]2c2ccc(O)c(OC)c2)[C@@H](O)[C@@H]1O", "strain or isolate": "ROD", "read by": "MTT", "value": ">140 µM"}
{"structure": "COc1cc2c(cc1OC)C1=NOC(c3ccc(N(C)C)cc3)C1C2", "strain or isolate": "ROD", "read by": "MTT", "value": "7 µM"}
{"structure": "CCO[C@]12CS(=O)(=O)O[C@@]13[C@@H](CN2)O[C@@H](n1cc(C)c(=O)[nH]c1=O)[C@@H]3OC(C)=O", "strain or isolate": "ROD", "value": ">250 µM"}
{"structure": "O=C1c2ccccc2N(Cc2ccc(Cl)c(Cl)c2)S(=O)(=O)N1Cc1ccccc1", "strain or isolate": "ROD", "read by": "cytopathic effect", "value": "≥10 µM"}
{"structure": "Cc1cc(C)c(-c2c3nc(c(-c4c(C)cc(C)cc4C)c4ccc([nH]4)c(-c4c(C)cc(C)cc4C)c4nc(c(-c5c(C)cc(C)cc5C)c5ccc2[nH]5)C=C4)C=C3)c(C)c1", "strain or isolate": "ROD", "read by": "cytopathic effect / MTT", "value": "1 µg/mL"}
{"structure": "Cc1ccc2c(c1)nc(-c1c(F)cccc1F)n2Cc1c(F)cccc1F", "strain or isolate": "ROD", "read by": "RT activity", "value": ">31.95 µM"}
{"structure": "COc1cc(Oc2nc(Nc3ccc(C#N)cc3)nc3ccsc23)ccc1-c1ccc(C#N)cc1", "strain or isolate": "ROD", "read by": "MTT", "value": ">116.9 µM"}
{"structure": "O=[N+]([O-])c1ccc(-c2csc(N/N=C/c3cccnc3)n2)cc1", "strain or isolate": "ROD", "read by": "MTT", "value": ">62.4 µM"}
{"structure": "C#CCOCN1c2ccccc2C(=O)N(Cc2ccccc2)S1(=O)=O", "strain or isolate": "ROD", "read by": "cytopathic effect", "value": ">10 µM"}
{"structure": "CCOS(=O)c1nsc(-c2ccc(OCc3ccccc3)cc2)c1C#N", "strain or isolate": "ROD", "read by": "cytopathic effect", "value": ">125 µg/mL"}
{"structure": "COc1cc([C@@H]2Oc3cc([C@H]4Oc5cc(O)cc(O)c5C(=O)[C@@H]4O)ccc3O[C@H]2COP(=O)(O)OC[C@H]2O[C@H](OC)[C@H](O)[C@@H](O)[C@@H]2O)ccc1O", "strain or isolate": "ROD", "read by": "MTT", "value": ">160 µM"}
{"structure": "N#Cc1ccc(-c2csc(N/N=C/c3ccncc3)n2)cc1", "strain or isolate": "ROD", "read by": "MTT", "value": ">53.1 µM"}
{"structure": "Cc1cc(Oc2nc(Nc3ccc(C#N)cc3)nc3ccsc23)ccc1-c1ccc(C#N)cc1", "strain or isolate": "ROD", "read by": "MTT", "value": "56.4 µM"}
{"structure": "CCn1cc(C(=O)O)c(=O)c2cc(F)c(N3CCN(c4ccccc4OC)CC3)c(OC(F)F)c21", "strain or isolate": "ROD", "read by": "cytopathic effect / MTT", "value": "0.3 µM"}
{"structure": "COc1cc([C@@H]2Oc3cc([C@H]4Oc5cc(O)cc(O)c5C(=O)[C@@H]4O)ccc3O[C@H]2COC[C@H]2O[C@H](OC)[C@@H](O)[C@@H](O)[C@@H]2O)ccc1O", "strain or isolate": "ROD", "read by": "MTT", "value": ">160 µM"}
{"structure": "COc1cc2c(cc1OC)C1=NOC(c3c(Cl)cccc3Cl)C1C2", "strain or isolate": "ROD", "read by": "MTT", "value": ">53.2 µM"}
{"structure": "N#Cc1ccc(Nc2nc(Oc3ccc(-c4ccc(C#N)cc4)c(C#N)c3)c3sccc3n2)cc1", "strain or isolate": "ROD", "read by": "MTT", "value": "1.4 µM"}
{"structure": "Cc1ccnc2c1NC(=O)c1cccnc1N2C1CC1", "strain or isolate": "ROD", "read by": "cytopathic effect", "value": ">20 µg/mL"}
{"structure": "O=C1c2ccccc2N(Cc2ccccc2)S(=O)(=O)N1Cc1ccc(Cl)cc1", "strain or isolate": "ROD", "read by": "cytopathic effect", "value": "≥50 µM"}
{"structure": "N#Cc1ccc(Nc2nc(Oc3ccc(-c4ccc(C#N)cc4)c(F)c3F)c3sccc3n2)cc1", "strain or isolate": "ROD", "read by": "MTT", "value": ">104.3 µM"}
{"structure": "Fc1cccc(F)c1Cn1c(-c2c(F)cccc2F)nc2ccccc21", "strain or isolate": "ROD", "read by": "RT activity", "value": ">33.63 µM"}
{"structure": "CSc1nsc(-c2ccccc2)c1C#N", "strain or isolate": "ROD", "read by": "cytopathic effect", "value": ">125 µg/mL"}
{"structure": "Cc1cn([C@@H]2O[C@@H]3CN[C@@]4(O[Si](C)(C)C(C)(C)C)CS(=O)(=O)O[C@@]34[C@H]2O[Si](C)(C)C(C)(C)C)c(=O)[nH]c1=O", "strain or isolate": "ROD", "value": ">2 µM"}
{"structure": "Fc1ccccc1Cn1c(-c2ccccc2F)nc2ccccc21", "strain or isolate": "ROD", "read by": "RT activity", "value": ">23.33 µM"}

A second listing of 4 rows from above:

structure	strain or isolate	read by	value
COc1cc2c(cc1OC)C1=NOC(c3ccco3)C1C2	ROD	MTT	>10.97 µM
N#Cc1ccc(Nc2nc(Oc3ccc(-c4ccc(C#N)cc4)c(F)c3F)c3sccc3n2)cc1	ROD	MTT	>104.3 µM
Cc1cnc(Nc2ccc(C#N)cc2)nc1C(C)(O)c1ccc(F)cc1	ROD	MTT	>38.2 µM
CCOS(=O)c1nsc(-c2ccc(OCc3ccccc3)cc2)c1C#N	ROD	cytopathic effect	>125 µg/mL

ECn: concentration that inhibits the pathogen or its effect by n%.